{"source": "the supplement of paper PMC9931576", "binders": {"B1": {"name": "BD55-5676 (protein)", "chain 1": "EVQLVESGGGLVQPGRSLRLSCAASGFTFENHAMNWVRQAPGKGLEWVSGISWNSGRIGYADSVKGRFTISRDNAKNFLYLQMSSLRAEDTAFYYCARGYDSSGYYSPDNLPDYWGQGTLVTVSS", "chain 2": "QLVVTQSPPASASLGASVKLTCTLSSGHSNNAVTWHQQQPEKGPRYLMKLNSDGSHHKGDGIPDRFSGSSSGAERYLIISSLQSEDEADYYCQTWDTGLNWVFGGGTKLTVL"}, "B2": {"name": "BD55-5687 (protein)", "chain 1": "QITLKESGPTLVKPTQTLTLTCTFSGFSLSTSRVAVGWIRQPPGKALEWLALIFWDDDKRYSPSLRSRLTISKDTSKNQVALTMTNMEPVDTATYYCAHGWWDYYGSGTRFDFWGPGTLVTVSS", "chain 2": "QSVLTQPPSASGTPGLRVTISCSGGSSNIGSNTVNWYQQLPGTAPKLLIYKDDQRPLGVPDRFSGSRSGTSASLAISGLQSEDEAHYYCATWDDSLNGPVFGGGTKLTVL"}, "B3": {"name": "BD55-5697 (protein)", "chain 1": "QLHLQESGPGLVKPSETLSLTCTVSGGSVTNSRNCWGWIRQPPGKGLEWIATIDYSGTTHYNPSLKSRVAISVDMSKSQFSLELSSVTAADTAVYYCARHVCQRSLYLLPLYFDYWGQGSVVTVSS", "chain 2": "YELTQPPSVSLSPGQTARIACSGDALPSQYAYWYQQKPGQAPVLLIFKDTERPSGIPERFSGSISGTTATLTISGVQAEDEADYYCQSAAAGTTYMVFGGGTKLTVL"}, "B4": {"name": "BD55-5644 (protein)", "chain 1": "QVQLVQSGSELKKPGASVKVSCKASGYTFSTYGINWVRQAPGQGLEWMGWINTDTGNPTYAQDFTGRFVFSLDTSVSTAYLRIDSLQSEDTAVYYCAKDRGFGEYYFDYWGQGTLVTVSS", "chain 2": "EIVMTQSPVTLSVSPGERATLSCKARANYGVGSDLAWYQQKPGQAPRLLIYAAVIRATGIPARFSGSGSGTDFTLTISSLQSEDFAVYYCQQYKNWPLTFGGGTRVEIK"}, "B5": {"name": "BD55-5629 (protein)", "chain 1": "EVQLLESGGGLVQPGGSLRLSCAASEFTFSSYAMSWVRQAPGKGLEWVSVISGTGFTTEYADSVKGRFTISRDNAKNMLYLQMNGLRGEDTAVYFCVKDKLDSDIVAPAFAALSWGQGTLVSVSS", "chain 2": "DIQMTQSPSSLSAAIGGRVTITCRASQSISTYLNWYQQKPGKAPKLLIYAASTLQSGVPSRFSGSGSGTDFTLTIGNVQREDSATYFCQQSYISPPVTFGQGTRLEIK"}, "B6": {"name": "BD55-5675 (protein)", "chain 1": "QVHLVQSGAEVKKPGASVKVSCKASGYTFTSYSIHWVRQAPGEGLEWVGIINPTAGSTNYAQRFQGRVTMTRDTSTSTVYMELSSLTSEDTALYYCARDFAFSREYSGYDILDTSWFDPWGQGTLVTVST", "chain 2": "DIVMTQSPDSLAVSLGERATINCKSSQSVLYNNKNYVAWYQQKPGQPPKVFIYWASTRASGVPDRFSGSGSGTDFTLTISSLQAEDVAIYYCHQYYSSPLTFGGGTKVEIK"}, "B7": {"name": "BD55-5694 (protein)", "chain 1": "EVQLEQSGAEVKKPGESLRISCKGSGNDFIMYWIGWVRQMPGKGLEWMGIIYPGDSETKYSPSFQGQVTISADKSIRTAYLQWSSLKASDTAIYYCAGAGGWLGDSFDIWGRGTTVIVSS", "chain 2": "EIVLTQSPGTLSLSPGGRATLSCRASQSVTRNYLAWYQQRPGQAPRVLIYGASTRATGVPDRFSGSGSGTDFTLTISRLERGDFAVYYCQQYGSAPLTFGGGTKVEIK"}, "B8": {"name": "BD55-5690 (protein)", "chain 1": "QAQVVQSGAEVKKPGASVKVSCKASGYTFTSYSMHWVRQAPGQGLEWMGTFNPRGGPTNYAQKFHGRVTMTGDTSTGTVYMELSSLRSDDTAVYYCARDGSPYYDILMGQSYFGPWGQGTLVTVSS", "chain 2": "QSVLTQPPSVSGAPGQRVTISCSGSSSNIGAGYDVHWYQQRPGTAPTLLIHGNNNRPSGVPDRFSGSTSDTSASLAITGLQAEDEAVYYCQSFDSSMSGPLWVFGGGTTLTVL"}, "B9": {"name": "BD55-5636 (protein)", "chain 1": "EVQLVESGGGLVQPGGSLRLSCAASGFIFSNFAMHWVRQTPEKGLEFVSSITSDGGGRFYADSVKGRFTISRDNSRNTLYLQMGSLRAEDMAVYYCAREKNTYDFLGLSFDFWGRGSLVTVSS", "chain 2": "DIQMTQSPASLSASVGGRVTITCRANQNINKNLNWYQHKPGKAPKLLIYAASSLQSGVPSRFRGSGSGTDFTLTISGLQPEDFATYYCQQTYITPMYTFGQGTTLEIK"}, "B10": {"name": "BD55-5609 (protein)", "chain 1": "QVQLVQSGAEVKKPGSSVRVSCKPAGGTFNSYAITWVRQAPGQGLEWMGGIIPVFDTTHYSQKFQGRVTINADESTSTVYMEVSSLTSHDTAIYYCAKSKYHPGYDVLTGRPDLNLPFDRWGQGTLVTVSS", "chain 2": "DIQMTQSPSSLSASVGDRVTITCQASQGIDKYLSWYQQKPGKAPKLLIHAASSLETGVPSRFTGSGSGTDFTFTISSLQSEDIATYYCQQYDSLPYTFGQGTKLEIK"}, "B11": {"name": "BD55-5640 (protein)", "chain 1": "QVQLVQSGAEVKKPESSVKVSCKASGGNFNTYGINWVRQAPGQGFEWMGRIIPITGAADYAQKFQGRVTITADKVTSTVYMELNSLRSEDTAVYYCARGGGRGYSGYDYFDYDIDVWGQGTTVTVSS", "chain 2": "B10 chain 2 with D30T, Y36F, A50D, S53N, T63S, S80P, S93N, Y96I, K103R"}, "B12": {"name": "BD55-1091 (protein)", "chain 1": "QVQLQESGPGLVKPSNTLSLTCSVSGYSISSGYYWAWIRQPPGKRLEWIGSVFESGATYYNPSLKSRVTISVDTSKNQFSLNLRSVTAADTAVYYCAREVAGSGNNELDYWGRGTLVTVSS", "chain 2": "EIVMTQSPATLSVSPGERATLSCRASQSVGDNLAWYQHKPGQAPRLLIYGASTRATGVPARFSGSGSGTEFTLTISRLQSEDFAVYYCQQYNLWGTFGQGTKVEIK"}}, "note": "Numbering of substitutions follows the chain as printed. Human monoclonal antibodies against the spike receptor-binding domain (heavy:light variable regions). IC50 against pseudoviruses bearing the spike of naturally observed variants; lower = stronger; >10 µg/ml means not reached at the top dose. No active / inactive call. The stated detection limit is 0.0005 µg/ml; values near or below 0.001 µg/ml lie at the floor of the assay.", "data": [{"molecular_target": "SARS-CoV-2 Omicron BA.1 spike pseudovirus", "experiment": "pseudovirus neutralization IC50; higher = weaker neutralization", "experimental": "(§1)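 Single-round VSV luciferase pseudovirus mixed with antibody dilutions for 1 h and put on Huh-7 cells for about a day; IC50 from the dose curve.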", "units": {"pseudovirus neutralization IC50": "µg/mL"}, "values": [{"binder": "B1", "pseudovirus neutralization IC50": "> 10"}, {"binder": "B2", "pseudovirus neutralization IC50": 5.08}, {"binder": "B3", "pseudovirus neutralization IC50": 0.0134}, {"binder": "B4", "pseudovirus neutralization IC50": 3.51}, {"binder": "B5", "pseudovirus neutralization IC50": 0.233}, {"binder": "B6", "pseudovirus neutralization IC50": 6.2}, {"binder": "B7", "pseudovirus neutralization IC50": "> 10"}, {"binder": "B8", "pseudovirus neutralization IC50": "> 10"}, {"binder": "B9", "pseudovirus neutralization IC50": "> 10"}, {"binder": "B10", "pseudovirus neutralization IC50": 1.07}, {"binder": "B11", "pseudovirus neutralization IC50": 0.0692}, {"binder": "B12", "pseudovirus neutralization IC50": 4.21}]}, {"molecular_target": "SARS-CoV-2 Omicron BA.2 spike pseudovirus", "experiment": "pseudovirus neutralization IC50; higher = weaker neutralization", "experimental": "as §1", "units": {"pseudovirus neutralization IC50": "µg/mL"}, "values": [{"binder": "B1", "pseudovirus neutralization IC50": "> 10"}, {"binder": "B2", "pseudovirus neutralization IC50": 4.13}, {"binder": "B3", "pseudovirus neutralization IC50": 0.168}, {"binder": "B4", "pseudovirus neutralization IC50": 8.98}, {"binder": "B5", "pseudovirus neutralization IC50": 3.87}, {"binder": "B6", "pseudovirus neutralization IC50": "> 10"}, {"binder": "B7", "pseudovirus neutralization IC50": "> 10"}, {"binder": "B8", "pseudovirus neutralization IC50": "> 10"}, {"binder": "B9", "pseudovirus neutralization IC50": "> 10"}, {"binder": "B10", "pseudovirus neutralization IC50": 1.43}, {"binder": "B11", "pseudovirus neutralization IC50": "> 10"}, {"binder": "B12", "pseudovirus neutralization IC50": "> 10"}]}, {"molecular_target": "SARS-CoV-2 Omicron BA.2.75 spike pseudovirus", "experiment": "pseudovirus neutralization IC50; higher = weaker neutralization", "experimental": "as §1", "units": {"pseudovirus neutralization IC50": "µg/mL"}, "values": [{"binder": "B1", "pseudovirus neutralization IC50": "> 10"}, {"binder": "B2", "pseudovirus neutralization IC50": 3.49}, {"binder": "B3", "pseudovirus neutralization IC50": 0.238}, {"binder": "B4", "pseudovirus neutralization IC50": "> 10"}, {"binder": "B5", "pseudovirus neutralization IC50": 2.3}, {"binder": "B6", "pseudovirus neutralization IC50": "> 10"}, {"binder": "B7", "pseudovirus neutralization IC50": "> 10"}, {"binder": "B8", "pseudovirus neutralization IC50": "> 10"}, {"binder": "B9", "pseudovirus neutralization IC50": "> 10"}, {"binder": "B10", "pseudovirus neutralization IC50": 2.77}, {"binder": "B11", "pseudovirus neutralization IC50": "> 10"}, {"binder": "B12", "pseudovirus neutralization IC50": "> 10"}]}, {"molecular_target": "SARS-CoV-2 Omicron BA.5 spike pseudovirus", "experiment": "pseudovirus neutralization IC50; higher = weaker neutralization", "experimental": "as §1", "units": {"pseudovirus neutralization IC50": "µg/mL"}, "values": [{"binder": "B1", "pseudovirus neutralization IC50": "> 10"}, {"binder": "B2", "pseudovirus neutralization IC50": 3.65}, {"binder": "B3", "pseudovirus neutralization IC50": 0.47}, {"binder": "B4", "pseudovirus neutralization IC50": 7.21}, {"binder": "B5", "pseudovirus neutralization IC50": 5.49}, {"binder": "B6", "pseudovirus neutralization IC50": "> 10"}, {"binder": "B7", "pseudovirus neutralization IC50": "> 10"}, {"binder": "B8", "pseudovirus neutralization IC50": "> 10"}, {"binder": "B9", "pseudovirus neutralization IC50": "> 10"}, {"binder": "B10", "pseudovirus neutralization IC50": 3.07}, {"binder": "B11", "pseudovirus neutralization IC50": "> 10"}, {"binder": "B12", "pseudovirus neutralization IC50": "> 10"}]}, {"molecular_target": "SARS-CoV-2 Omicron BQ.1.1 spike pseudovirus", "experiment": "pseudovirus neutralization IC50; higher = weaker neutralization", "experimental": "as §1", "units": {"pseudovirus neutralization IC50": "µg/mL"}, "values": [{"binder": "B1", "pseudovirus neutralization IC50": "> 10"}, {"binder": "B2", "pseudovirus neutralization IC50": 2.41}, {"binder": "B3", "pseudovirus neutralization IC50": "> 10"}, {"binder": "B4", "pseudovirus neutralization IC50": "> 10"}, {"binder": "B5", "pseudovirus neutralization IC50": 2.38}, {"binder": "B6", "pseudovirus neutralization IC50": "> 10"}, {"binder": "B7", "pseudovirus neutralization IC50": "> 10"}, {"binder": "B8", "pseudovirus neutralization IC50": "> 10"}, {"binder": "B9", "pseudovirus neutralization IC50": "> 10"}, {"binder": "B10", "pseudovirus neutralization IC50": 4.62}, {"binder": "B11", "pseudovirus neutralization IC50": "> 10"}, {"binder": "B12", "pseudovirus neutralization IC50": "> 10"}]}, {"molecular_target": "SARS-CoV-2 Omicron XBB spike pseudovirus", "experiment": "pseudovirus neutralization IC50; higher = weaker neutralization", "experimental": "as §1", "units": {"pseudovirus neutralization IC50": "µg/mL"}, "values": [{"binder": "B1", "pseudovirus neutralization IC50": "> 10"}, {"binder": "B2", "pseudovirus neutralization IC50": 2.14}, {"binder": "B3", "pseudovirus neutralization IC50": "> 10"}, {"binder": "B4", "pseudovirus neutralization IC50": "> 10"}, {"binder": "B5", "pseudovirus neutralization IC50": 4.47}, {"binder": "B6", "pseudovirus neutralization IC50": "> 10"}, {"binder": "B7", "pseudovirus neutralization IC50": "> 10"}, {"binder": "B8", "pseudovirus neutralization IC50": "> 10"}, {"binder": "B9", "pseudovirus neutralization IC50": "> 10"}, {"binder": "B10", "pseudovirus neutralization IC50": 3.54}, {"binder": "B11", "pseudovirus neutralization IC50": "> 10"}, {"binder": "B12", "pseudovirus neutralization IC50": "> 10"}]}, {"molecular_target": "SARS-CoV-2 early D614G spike pseudovirus", "experiment": "pseudovirus neutralization IC50; higher = weaker neutralization", "experimental": "as §1", "units": {"pseudovirus neutralization IC50": "µg/mL"}, "values": [{"binder": "B1", "pseudovirus neutralization IC50": 0.0132}, {"binder": "B2", "pseudovirus neutralization IC50": 2.33}, {"binder": "B3", "pseudovirus neutralization IC50": 0.00313}, {"binder": "B4", "pseudovirus neutralization IC50": 0.762}, {"binder": "B5", "pseudovirus neutralization IC50": 0.0146}, {"binder": "B6", "pseudovirus neutralization IC50": 0.0247}, {"binder": "B7", "pseudovirus neutralization IC50": "> 10"}, {"binder": "B8", "pseudovirus neutralization IC50": 0.0506}, {"binder": "B9", "pseudovirus neutralization IC50": "> 10"}, {"binder": "B10", "pseudovirus neutralization IC50": 0.793}, {"binder": "B11", "pseudovirus neutralization IC50": 0.0143}, {"binder": "B12", "pseudovirus neutralization IC50": 0.514}]}]}
